# Reference: ChEMBL document CHEMBL3616452 (Eur J Med Chem, 2015)
# Legend:
# [1] = Antiviral activity against Influenza A virus (A/WSN/1933(H1N1)) expressing nucleoprotein S377G mutant assessed as virus-mediated cytopathic effect in MDCK cells
# [2] = Antiviral activity against Influenza A virus (A/WSN/1933(H1N1)) expressing nucleoprotein Y289H mutant assessed as virus-mediated cytopathic effect in MDCK cells
# [3] = Antiviral activity against Influenza A virus (A/WSN/1933(H1N1)) expressing nucleoprotein Y52H mutant assessed as virus-mediated cytopathic effect in MDCK cells
smiles,measurement,setting,value
Cn1c(=O)c2c(-c3ccccc3)n3c(c2n(C)c1=O)C(c1ccccc1F)OCC3(C)C (stereo not drawn),EC50,[1],8 µM
same,EC50,[2],1400 nM
same,EC50,[3],1000 nM
